Measured values from several laboratories, pooled; numbers as filed in NIAID ChemDB.

All rows: whole-cell or culture tests; species: Mycobacterium tuberculosis

MIC50, MIC90 and the like: level of inhibition, or share of isolates inhibited. MIC bound: limit read from a one-dose screen. Lines come from different laboratories, so protocols vary. Inhibition is in % at the dose shown (toxicity tests: loss of growth or viability). An empty or dashed field is not shown.

compound | measure | conditions | strain | read by | dose | result
O=C(N/N=C/c1ccc([N+](=O)[O-])s1)c1cnccn1 | MIC |  | ATCC 27294 | resazurin |  | >100 µg/mL
O=C(O)/C=C/c1ccccc1 | MIC |  | 90-0145 (DRUG-SUS) |  |  | 200 µg/mL
CCOC(=O)c1cc2nc3ccccn3c(=O)c2cc1N | inhibition |  | H37Rv | BACTEC | 12.5 µg/mL | -6%
C=C/C(C)=C/[C@@]1(C)SC(=O)C(C)=C1O | MIC |  | Isolate M304 |  |  | 20 µg/mL
Cc1c(C(=O)NN2CCCCC2)nn(-c2ccccc2Cl)c1-c1ccc(Cl)cc1 | MIC90 |  | H37Rv | agar |  | 12.5 µg/mL
C[C@]1(COc2ccc(-n3cc(COc4ccccc4F)nn3)cc2)Cn2cc([N+](=O)[O-])nc2O1 | MIC |  | H37Rv | broth dilution / resazurin |  | 0.54 µM
CO[C@H]1/C=C/O[C@@]2(C)Oc3c(C)c(O)c4c(=O)c(c5oc6cc(N7CCN(CC(C)C)CC7)cc(=O)c6nc5c4c3=C2O)NC(=O)/C(C)=C\C=C\[C@H](C)[C@H](O)[C@@H](C)[C@@H](O)[C@@H](C)[C@H](OC(C)=O)[C@@H]1C | inhibition | inside macrophages | Kurono |  | 1 µg/mL | 95.6%
C[C@]1(COc2ccc(N3CCC(Nc4ccc(OC(F)(F)F)cc4)CC3)cc2)Cn2cc([N+](=O)[O-])nc2O1 | MIC |  | H37Rv |  |  | 0.024 µg/mL
CCCn1c(=O)c2nn3c(=O)n(CCC)c(=O)c3nn2c1=O | inhibition |  | H37Rv | BACTEC | 12.5 µg/mL | 0%
Cc1c(C(=O)NNC(=O)c2ccncc2)nn(-c2ccc(Cl)cc2Cl)c1-c1ccc(Cl)cc1 | MIC90 |  | H37Rv | agar |  | 12.5 µg/mL
CN[C@@H]1[C@H](O[C@H]2[C@H](O[C@H]3[C@H](O)[C@@H](O)[C@H](N=C(N)N)[C@@H](O)[C@@H]3N=C(N)N)O[C@@H](C)[C@]2(O)C=O)O[C@@H](CO)[C@H](O)[C@H]1O | MIC |  | U113 |  |  | ≥512 µg/mL
Cc1c(-c2ccc(Cl)cc2)n[nH]c1C(=O)O | MIC90 |  | H37Rv | agar |  | 12.5 µg/mL
O=C(N/N=C/c1ncc[nH]1)c1cnccn1 | MIC |  | ATCC 27294 | resazurin |  | 50 µg/mL
Cc1c(C(=O)NNC(=O)c2ccncc2)nn(-c2ccc(Cl)cc2Cl)c1-c1ccccc1 | MIC90 |  | H37Rv | agar |  | 25 µg/mL
COc1cc(Cn2c(-c3cc(OC)c(OC)c(OC)c3)nc3ccccc32)cc(OC)c1OC | MIC |  | H37Rv | radiometric |  | >500 µM
CN(c1ccc(OC(F)(F)F)cc1)C1CCN(C2CCN(c3ccc(OC[C@@]4(C)Cn5cc([N+](=O)[O-])nc5O4)cc3)CC2)CC1 | MIC |  | H37Rv |  |  | 0.024 µg/mL
O=[N+]([O-])c1ccc(-c2nc3ccccc3[nH]2)cc1 | MIC |  | H37Rv | radiometric |  | >500 µM
C[C@]1(COc2ccc(-n3cc(COc4ccc(F)cc4)nn3)cc2)Cn2cc([N+](=O)[O-])nc2O1 | MIC |  | H37Rv | broth dilution / resazurin |  | 0.54 µM
COC(=O)CC(NC(=O)OCc1ccccc1)C(=O)NC(CO)C(=O)NCC(=O)Oc1ccc([N+](=O)[O-])cc1 | MIC bound |  | H37Rv | BACTEC |  | >12.8 µg/mL
Cc1c(C(=O)N2CCOCC2)nn(-c2ccc(Cl)cc2Cl)c1-c1ccc(Cl)cc1 | MIC90 |  | H37Rv | agar |  | >25 µg/mL
COc1ccc(C(O)/C(=C/n2ccnc2)c2ccccc2)cc1OC | inhibition |  | H37Rv | resazurin | 6.25 µg/mL | 6%
CCc1nc2ccc(C)cc2n1CCCCOc1ccccc1 | MIC90 |  | H37Rv-LP | turbidity / fluorescence |  | 0.34 µM
NC(=O)c1cnccn1 | MIC |  | BDDIS20 (niacin-positive) |  |  | >2048 µg/mL
COc1ccc2nc(-c3ccc(O)c(OC)c3)[nH]c2c1 | MIC |  | H37Rv | radiometric |  | >500 µM
C[C@]1(COc2ccc(N3CCC(OCc4ccc(C(F)(F)F)cc4)CC3)cc2)Cn2cc([N+](=O)[O-])nc2O1 | MIC |  | H37Rv |  |  | 0.003 µg/mL
CC1=C(O)C(C)(Cc2cccc(C(=O)c3ccccc3)c2)SC1=O | MIC90 |  | H37Rv |  |  | 128 µM
CCCCOc1ccc(NC(=S)Nc2ccc(OCCN(CC)CC)cc2)cc1 | MIC |  | H37RV #80 |  |  | 16.6 µg/mL
CC1COc2c(N3CCN(C)CC3)c(F)cc3c(=O)c(C(=O)O)cn1c23 | MIC |  | 90-0233 (isoniazid streptomycin-resistant) |  |  | 0.5 µg/mL
NC(=O)c1cnccn1 | MIC |  | ATCC 27294 | resazurin |  | >100 µg/mL
COc1ccc(-c2cn(-c3ccc(OC[C@@]4(C)Cn5cc([N+](=O)[O-])nc5O4)cc3)nn2)cc1 | MIC |  | ss18b non-replicating phase | broth dilution / resazurin |  | >35 µM
C(=NCCc1ccccc1)c1ccccc1B1OB(c2ccccc2C=NCCc2ccccc2)OB(c2ccccc2C=NCCc2ccccc2)O1 | MIC bound |  | H37Rv | BACTEC |  | ≤128 µg/mL
CN(c1ccc(OC[C@@]2(C)Cn3cc([N+](=O)[O-])nc3O2)cc1)C1CCN(c2ccc(OC(F)(F)F)cc2)CC1 | MIC |  | H37Rv |  |  | 0.024 µg/mL
Nc1nc(N)nc(-c2ccc(OCc3ccccc3)cc2)n1 | MIC |  | H37Rv | resazurin |  | 87.36 µM
CCOC(=O)n1c(=O)nc2c3c(ncn21)Oc1c(c(-c2ccccc2)nn1-c1ccccc1)C3c1ccc(Cl)cc1 | MIC |  | H37Rv | resazurin |  | 6.25 µg/mL
Cc1ccc2c(c1)c1c3n2CCN(CC(O)CNCCCN(C)C)C3CCC1 | MIC |  | H37Rv |  |  | 64 µg/mL
Cc1cccc(Nc2nnc3nc(-c4ccccc4)c(-c4ccccc4)nn23)c1 | MIC bound |  | H37Rv | BACTEC |  | >12.5 µg/mL
NNC(=O)c1ccncc1 | MIC |  | H37Rv |  |  | 0.02 µg/mL
C[C@]1(COc2ccc3nc(N4CCC(Cc5ccc(OC(F)(F)F)cc5)CC4)ccc3c2)Cn2cc([N+](=O)[O-])nc2O1 | MIC |  | H37Rv |  |  | 0.003 µg/mL
O=C1CCC2=C3C4CCCCC4C(=O)C4CCCC(OC2C1)C34 | inhibition |  | H37Rv | BACTEC | 12.5 µg/mL | 93%
NNC(=O)c1ccncc1 | MIC |  | BCG #256 |  |  | <0.5 µg/mL
CC(C)=CCC1(C)SC(=O)C(C)=C1O | MIC50 |  | H37Rv |  |  | >300 µM
C[C@]1(COc2ccc(-n3cc(COc4cccc(Cl)c4)nn3)cc2)Cn2cc([N+](=O)[O-])nc2O1 | MIC |  | H37Rv | broth dilution / resazurin |  | 0.52 µM
CO[C@H]1/C=C/O[C@@]2(C)Oc3c(C)c(O)c4c(O)c(c(/C=N/N5CCN(C6CCCC6)CC5)c(O)c4c3C2=O)NC(=O)/C(C)=C\C=C\[C@H](C)[C@H](O)[C@@H](C)[C@@H](O)[C@@H](C)[C@H](OC(C)=O)[C@@H]1C | MIC |  | Isolate 880902 rifampicin-resistant |  |  | >32 µg/mL
CCCCOc1ccc(NC(=S)Nc2ccc(N(C)C)cc2)cc1 | MIC |  | 76 |  |  | 7.8 µg/mL
CC(=O)CN1CCn2c3c(c4cc(C)ccc42)CCCC31 | MIC |  | H37Rv |  |  | 64 µg/mL
Nc1ccc(CCCCc2ccc(S(=O)(=O)F)cc2Cl)c(Cl)c1 | inhibition |  | H37Rv | BACTEC | 12.5 µg/mL | 18%
CSc1ccc(COc2ccc(-c3nc(N)nc(N)n3)cc2)cc1 | MIC |  | H37Rv | resazurin |  | 5.98 µM
Nc1ccccc1Nc1c([N+](=O)[O-])cc(C(F)(F)F)cc1[N+](=O)[O-] | MIC bound |  | H37Rv | BACTEC |  | ≤12.5 µg/mL
NCC[C@H](O)C(=O)N[C@@H]1C[C@H](N)[C@@H](O[C@H]2O[C@H](CN)[C@@H](O)[C@H](O)[C@H]2O)[C@H](O)[C@H]1O[C@H]1O[C@H](CO)[C@@H](O)[C@H](N)[C@H]1O | MIC |  | 90-0145 (DRUG-SUS) |  |  | 0.5 µg/mL
Cc1c(C(=O)N2CCN(C)CC2)nn(-c2ccc(Cl)cc2Cl)c1-c1ccc(Cl)cc1 | MIC90 |  | H37Rv | agar |  | 25 µg/mL
O=C1C(=Nc2cccc(Cl)c2)CC(c2ccc(Cl)cc2)N1c1cccc(Cl)c1 | inhibition |  | H37Rv | BACTEC | 12.8 µg/mL | -4%
Cc1ccc2c(c1)c1c3n2CCN(C=O)C3CCC1 | MIC |  | H37Rv |  |  | 8 µg/mL
CC(=O)O[C@H]1C(=O)[C@]2(C)[C@@H](OC(C)=O)C[C@H]3OC[C@@]3(OC(C)=O)[C@H]2[C@H](OC(=O)c2ccccc2)[C@]2(O)C[C@H](OC(=O)[C@H](OC(C)=O)[C@@H](NC(=O)c3ccccc3)c3ccccc3)C(C)=C1C2(C)C | inhibition |  | H37Rv | BACTEC | 12.5 µg/mL | 95%
CC(C)N=c1cc2n(-c3ccc(Cl)cc3)c3ccccc3nc-2cc1Nc1ccc(Cl)cc1 | MIC90 |  | H37Rv-MA cydC::aph | turbidity / fluorescence |  | 0.19 µM
COc1cccc2c1C(=O)c1c(O)c3c(c(O)c1C2=O)C[C@@](O)(/C(C)=N/NC(=O)c1cccc([N+](=O)[O-])c1)C[C@H]3O[C@H]1CC(N)[C@H](O)[C@H](C)O1 | MIC bound |  | H37Rv | BACTEC |  | ≤12.5 µg/mL
C[C@]1(COc2ccc(N3CCN(C/C=C/c4c(Cl)cccc4Cl)CC3)cc2)Cn2cc([N+](=O)[O-])nc2O1 | MIC |  | H37Rv |  |  | 0.024 µg/mL
COc1ccc(COc2cc(-c3nc(N)nc(N)n3)ccc2OC)cc1 | MIC |  | H37Rv | resazurin |  | 12 µM
CC/C=C/C(CC)CCC[C@@]1(CC)C[C@H](CC)[C@H](CC(=O)OC)OO1 | inhibition |  |  |  | 16 µg/mL | 34%
COc1cc(-c2nc(N)nc(N)n2)ccc1OCc1ccc(Cl)cc1 | MIC |  | H37Rv | resazurin |  | 3.63 µM
Cc1ccc2c(c1)c1c3n2CCN(C(=O)/C=C/C(=O)O)C3CCC1 | MIC |  | H37Rv |  |  | 16 µg/mL
CCOC(=O)c1nn(-c2ccc(Cl)cc2Cl)c(-c2ccc(Cl)cc2)c1C | MIC90 |  | H37Rv | agar |  | 25 µg/mL
CCCc1ccc(N(C)C2CCN(c3ccc(OC[C@@]4(C)Cn5cc([N+](=O)[O-])nc5O4)cc3)CC2)cc1 | MIC |  | H37Rv |  |  | 0.024 µg/mL
O=C(N/N=C/c1ccc[nH]1)c1cnccn1 | MIC |  | ATCC 27294 | resazurin |  | >100 µg/mL
C[C@]1(COc2ccc(-c3cc(-c4ccc(F)cc4F)on3)cc2)Cn2cc([N+](=O)[O-])nc2O1 | MIC |  | H37Rv | broth dilution / resazurin |  | 1.1 µM
CC(C)=CCCC(C)CCC1(C)SC(=O)C(C)=C1O | MIC90 |  | H37Rv |  |  | 56 µM
COc1ccc(-c2nc3ccccc3[nH]2)cc1OC | MIC |  | H37Rv | radiometric |  | >500 µM
C=CCOCCN1CCN(CCCN2c3ccccc3Sc3ccc(C(F)(F)F)cc32)CC1.Cl | inhibition |  | H37Rv | BACTEC | 12.5 µg/mL | 99%
Nc1nc(N)nc(-c2ccc(OCc3ccc(Cl)cc3)cc2)n1 | MIC |  | H37Rv | resazurin |  | 1.76 µM
CCc1nc2ccccc2n1CCCCSc1nc(-c2ccccc2)cs1 | MIC90 |  | H37Rv-MA cydC::aph | turbidity / fluorescence |  | 0.62 µM
O=C(N/N=C/c1ccccn1)c1cnccn1 | MIC |  | ATCC 27294 | resazurin |  | >100 µg/mL
CCSC1OC(C(COC(C)=O)OC(C)=O)C(OC(C)=O)C1NC(C)=S | inhibition |  | H37Rv | BACTEC | 12.5 µg/mL | 7%
COc1cccc(NC2CCN(c3ccc(OC[C@@]4(C)Cn5cc([N+](=O)[O-])nc5O4)cc3)CC2)c1 | MIC |  | H37Rv |  |  | 0.024 µg/mL
Cc1c(S(=O)(=O)c2ccccc2)c(N)n(Cc2ccccc2)c1C | MIC bound |  | H37Rv | resazurin |  | >6.25 µg/mL
CC/C=C/[C@H](CC)C/C(=C/[C@]1(CC)C[C@@](/C=C/C(=O)O)(CC)OO1)CC | inhibition |  |  |  | 64 µg/mL | 72%
CCCCCCOCC(O)CNCCNCC(O)COCCCCCC | MIC bound |  | H37Rv |  |  | >6.25 µg/mL
Cc1ccc2c(c1)c1c3n2CCN(CC(O)CNCc2ccccc2)C3CCC1 | MIC |  | H37Rv |  |  | 4 µg/mL
O=c1ccc2cc3ccoc3c(O)c2o1 | MIC |  | H37Rv | BACTEC |  | ≥12.5 µg/mL
CCc1nc2ccccc2n1CCCCOc1ccc2sc(C)nc2c1 | MIC90 |  | H37Rv-MA cydC::aph | turbidity / fluorescence |  | 0.82 µM
CC1(C)OC(=O)C(=CN(C2CCCCC2)C2CCCCC2)C(=O)O1 | inhibition |  | H37Rv | BACTEC | 12.5 µg/mL | -18%
COc1ccc(-c2nc3ccc([N+](=O)[O-])cc3[nH]2)cc1OC | MIC |  | H37Rv | radiometric |  | >500 µM
C[C@]1(COc2ccc(N3CCN(C/C=C/c4ccc(OC(F)(F)F)cc4)CC3)cc2)Cn2cc([N+](=O)[O-])nc2O1 | MIC |  | H37Rv |  |  | 0.012 µg/mL

A second listing of 5 rows from above:

compound	measure	conditions	strain	read by	dose	result
Cc1ccc2c(c1)c1c3n2CCN(C(=O)/C=C/C(=O)O)C3CCC1	MIC		H37Rv			16 µg/mL
COC(=O)CC(NC(=O)OCc1ccccc1)C(=O)NC(CO)C(=O)NCC(=O)Oc1ccc([N+](=O)[O-])cc1	MIC bound		H37Rv	BACTEC		>12.8 µg/mL
O=C1CCC2=C3C4CCCCC4C(=O)C4CCCC(OC2C1)C34	inhibition		H37Rv	BACTEC	12.5 µg/mL	93%
COc1ccc(C(O)/C(=C/n2ccnc2)c2ccccc2)cc1OC	inhibition		H37Rv	resazurin	6.25 µg/mL	6%
Cc1c(C(=O)NNC(=O)c2ccncc2)nn(-c2ccc(Cl)cc2Cl)c1-c1ccccc1	MIC90		H37Rv	agar		25 µg/mL